In test [1] the target is T1, Histamine H4 receptor (Homo sapiens, UniProt Q9H3N8). Nature of the test: Antagonist activity at human recombinant histamine H4 receptor expressed in SK-N-MC cells assessed as inhibition of forskolin-stimulated cAMP-mediated reporter gene activity. In kind it is functional, cell-based. The note with it: read-out: pA2 (converted). (In general: Reporter assays use an easily measured gene product as a stand-in for the process of interest.)

By UniProt entry, the sequences of proteins in these tests, tags left out. Where a name states a change or a piece, a line headed by the entry shows the natural chain unless it says otherwise.
UniProt Q9H3N8: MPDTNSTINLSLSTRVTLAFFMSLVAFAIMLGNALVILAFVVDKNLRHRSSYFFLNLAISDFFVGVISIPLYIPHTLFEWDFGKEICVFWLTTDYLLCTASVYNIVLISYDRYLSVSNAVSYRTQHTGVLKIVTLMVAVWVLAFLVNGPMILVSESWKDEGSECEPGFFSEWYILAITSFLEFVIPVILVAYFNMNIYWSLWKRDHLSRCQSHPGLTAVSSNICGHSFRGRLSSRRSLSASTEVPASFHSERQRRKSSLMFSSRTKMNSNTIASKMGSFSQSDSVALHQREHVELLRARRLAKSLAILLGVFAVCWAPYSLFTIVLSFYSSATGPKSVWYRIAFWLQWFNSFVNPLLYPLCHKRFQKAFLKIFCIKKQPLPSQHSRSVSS

The target in test [2] is T1, Histamine H4 receptor. Nature of the test: Displacement of [3H]histamine from human recombinant histamine H4 receptor. A general note: Displacement assays read how much labelled ligand stays bound in the presence of the test substance.
In test [3] the target is T1, Histamine H4 receptor. The test can be described thus: Agonist activity at human recombinant histamine H4 receptor expressed in SK-N-MC cells assessed as effect on forskolin-stimulated cAMP-mediated reporter gene activity. In kind it is functional, cell-based.

Some results are limits rather than exact numbers.

As to `CN[C@@H]1CCN(c2ccnc(NCC(C)C)c2)C1`, at Histamine H4 receptor [1], the Kb was 631 nM.

Consider `CN[C@@H]1CCN(c2ccnc(NC3CCCC3)c2)C1`, for which the Kb on Histamine H4 receptor [1] was 1000 nM. Further, the Ki (in general, the equilibrium dissociation constant of an inhibitor or competing ligand from its target) on Histamine H4 receptor [2] was 4 nM. For the same molecule, the EC50 (as a rule, the concentration giving half of the maximal effect) on Histamine H4 receptor [3] is greater than 10 µM.

As to `CN[C@H]1CCN(c2ccnc(NC3CCCC3)c2)C1`, on Histamine H4 receptor [2], the Ki was 33 nM. Further, the EC50 at Histamine H4 receptor [3] was greater than 10 µM.

For `CN[C@@H]1CCN(c2cnnc(NC3CC4CCC3C4)c2)C1` (stereo partly specified), at Histamine H4 receptor [1], the Kb is 10 nM. Besides, the Ki on Histamine H4 receptor [2] was 8 nM. Also, at Histamine H4 receptor [3], the EC50 worked out at 1 µM.

Take `CN[C@H]1CCN(c2cnnc(NC3CC4CCC3C4)c2)C1` (stereo partly specified): the Ki at Histamine H4 receptor [2] worked out at 5 nM. The EC50 on Histamine H4 receptor [3] was greater than 10 µM.

The values are drawn from ChEMBL document CHEMBL3393002, “Diaminopyrimidines, diaminopyridines and diaminopyridazines as histamine H4 receptor modulators” (Bioorg Med Chem Lett, 2015).
